Measurements: publication doi:10.1101/464495
Construct, isoform or probe ends are uncertain for at least one entry. For some of these results: A weaker result is weaker than the reference pair of the same experiment. For some of these results: At least one verdict rests on a figure or table, not on a statement of the authors.

Chains of the proteins cited; added tags and fusions are not shown. Lines headed by an entry give the natural chain unless they say otherwise; changes in a name come on top.
UniProt P19893: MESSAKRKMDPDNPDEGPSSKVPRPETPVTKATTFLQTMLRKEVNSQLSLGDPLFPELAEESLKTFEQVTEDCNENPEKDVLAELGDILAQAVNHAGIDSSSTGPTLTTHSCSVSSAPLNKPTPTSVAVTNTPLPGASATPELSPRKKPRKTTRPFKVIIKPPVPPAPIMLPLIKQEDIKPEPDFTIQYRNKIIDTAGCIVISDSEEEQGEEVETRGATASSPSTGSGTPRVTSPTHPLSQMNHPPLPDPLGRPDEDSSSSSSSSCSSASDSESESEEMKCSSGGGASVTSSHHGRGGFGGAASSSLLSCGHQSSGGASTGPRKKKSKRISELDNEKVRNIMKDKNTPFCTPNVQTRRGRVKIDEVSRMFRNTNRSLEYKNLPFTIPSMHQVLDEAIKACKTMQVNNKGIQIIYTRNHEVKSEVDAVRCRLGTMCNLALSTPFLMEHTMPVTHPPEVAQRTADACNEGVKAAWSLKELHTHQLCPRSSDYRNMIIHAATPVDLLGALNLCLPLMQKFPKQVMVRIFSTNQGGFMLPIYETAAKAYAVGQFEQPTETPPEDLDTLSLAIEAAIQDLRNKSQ

What was measured:
[1] = biological target: MBP-IE86 C-terminal fragment (IE86C) (human cytomegalovirus) (UniProt P19893); assay: size-exclusion chromatography
[2] = biological target: MBP-IE86 C-terminal fragment (IE86C) (human cytomegalovirus) (UniProt P19893); assay: EMSA; conditions: 0-20 uM protein

**Q.** Does “ACAGATCGTTTAGTGAACCGTACACG (double strand) [26bp DNA]” bind ([1]; less efficient than 28bp)?
**A.** binds

**Q.** Does “AGACAGATCGTTTAGTGAACCGTACACGAT (double strand) [30bp DNA]” bind ([1]; less efficient than 28bp)?
**A.** binds

**Q.** Does “AGATCGTTTAGTGAACCGTAC (double strand) [21bp DNA]” bind ([1]; less efficient than 28bp)?
**A.** binds

**Q.** Does “ATAGACAGATCGTTTAGTGAACCGTACACGATTA (double strand) [34bp DNA]” bind [1]?
**A.** binds more weakly

**Q.** Does “CAGATCGTTTAGTGAACCGTACAC (double strand) [24bp DNA]” bind ([1]; less efficient than 28bp)?
**A.** binds

**Q.** Does “CGTTTAGTGAACCGCGCGCGATAGTACATAATCA (double strand) [FDC (1x)]” bind [1]?
**A.** binds

**Q.** Does “CGTTTAGTGAACCGCGCGCGCGTTTAGTGAACCG (double strand) [FDC (2x) concatemer]” bind ([1]; enhanced over 1x)?
**A.** binds

**Q.** Does “GGTGGGAGGTCTATATAAGCAGAGCTCGTTTAGTGAACCGTCAGATCGCCTGGAGAC (double strand) [crs EMSA probe]” bind [2]?
**A.** binds

**Q.** Does “TAATACGACTCACTATAGGGCGAATTGGAGCTCGTTTAGTGAACCGTCAGATCTCTAGAAGCTT (double strand) [64bp DNA]” bind [1]?
**A.** binds more weakly

**Q.** Does “TCGTTTAGTGAACC (double strand) [14bp DNA]” bind [1]?
**A.** binds more weakly
